Measured values from several laboratories, pooled; numbers as filed in NIAID ChemDB.

Shared fields: enzyme or target tests; organism: Hepatitis C virus

An empty or dashed field is not shown.

structure,target,tested at,measure,value
O=C(NCc1ccc(Cl)c(Cl)c1)Nc1ccccc1-c1nc(C(=O)O)c(O)c(=O)[nH]1,HCV polymerase,,IC50,<100 µM
COc1ccc(-c2cc(N(C)C(=O)c3ccc(C)cc3)c(C(=O)O)s2)cc1,NS3 ATPase,,IC50,5–20 µM
O=C(Nc1ccsc1-c1nc(C(=O)O)c(O)c(=O)[nH]1)OCc1cccc(Cl)c1,HCV polymerase,,IC50,<25 µM
Cc1ccc2cc(-c3ccc4cc(-c5nc6cc(C(=O)O)ccc6n5C5CCCCC5)ccc4n3)ccc2c1,NS5B polymerase,33 µM,inhibition,99.55%
COC(=O)c1nc(-c2sccc2NC(=O)c2ccccc2-c2ccccc2C(=O)O)[nH]c(=O)c1O,HCV polymerase,,IC50,<50 µM
O=C(O)c1cnn2c(C3CCCCC3)c(-c3ccc4occc4c3)cnc12,RNA-dependent RNA polymerase,,IC50,1–10 µM
Cc1cccc(COc2cccc(-c3nc(C(=O)O)c(O)c(=O)[nH]3)c2)c1F,HCV polymerase,,IC50,<100 µM
CCN(C(=O)C1CCC1)c1cc(-c2ccccc2)sc1C(=O)O,NS3 ATPase,,IC50,5–20 µM
O=C(O)c1ccc2c(c1)nc(-c1ccc3nc(-c4ccc(N5CCNCC5)cc4)ccc3c1)n2C1CCCCC1,NS5B polymerase,100 µM,inhibition,97.17%
Cc1cnc2c(-c3nn[nH]n3)cnn2c1C(C)C,RNA-dependent RNA polymerase,,IC50,>10 µM
O=C(O)c1sc(-c2ccccc2)cc1N(Cc1cccc(Cl)c1)C(=O)C1CCC1,NS3 ATPase,,IC50,5–20 µM
Nc1ccccc1CNC(=O)Nc1ccccc1-c1nc(C(=O)O)c(O)c(=O)[nH]1,HCV polymerase,,IC50,<100 µM
O=C(O)c1sc(-c2ccccc2)cc1N(Cc1ccc(C(F)(F)F)cc1)C(=O)C1CCCCC1,NS3 ATPase,,IC50,<5 µM
Clc1ccc(Oc2cccc(-c3cnc4c(-c5nn[nH]n5)cnn4c3C3CCCCC3)c2)cc1,RNA-dependent RNA polymerase,,IC50,1–10 µM
CC(C(=O)O)N(c1cc(-c2ccccc2)sc1C(=O)O)S(=O)(=O)c1ccc(Cl)cc1Cl,NS3 ATPase,,IC50,<5 µM
O=C(O)c1ccc2c(c1)nc(-c1ccc3nc(-c4ccccc4-c4ccc(Cl)cc4)ccc3c1)n2C1CCCCC1,NS5B polymerase,100 µM,inhibition,98.68%
O=C(NCc1cc(Cl)ccc1Cl)Nc1ccccc1-c1nc(C(=O)O)c(O)c(=O)[nH]1,HCV polymerase,,IC50,<100 µM
COC(=O)c1cc2nc(C)cc(C(F)(F)F)n2n1,RNA-dependent RNA polymerase,,IC50,>10 µM
O=C(Nc1ccsc1-c1nc(C(=O)O)c(O)c(=O)[nH]1)OCc1cc2ccccc2s1,HCV polymerase,,IC50,<25 µM
O=C(Nc1cc(-c2ccccc2)sc1C(=O)O)c1ccc(Cl)cc1,NS3 ATPase,,IC50,5–20 µM
CC(C)N(C(=O)c1ccc2cc(-c3nc4cc(C(=O)O)ccc4n3C3CCCCC3)ccc2n1)c1ccc(Cl)cc1,NS5B polymerase,100 µM,inhibition,102%
O=C(O)c1sc(-c2ccccc2)cc1NS(=O)(=O)c1ccccc1CCl,NS3 ATPase,,IC50,5–20 µM
Clc1cccc(Oc2cccc(-c3cnc4c(-c5nn[nH]n5)cnn4c3C3CCCCC3)c2)c1,RNA-dependent RNA polymerase,,IC50,1–10 µM
COc1ccc(-c2cccc(C(=O)O)c2)c(-c2ccc3cc(-c4nc5cc(C(=O)O)ccc5n4C4CCCCC4)ccc3n2)c1,NS5B polymerase,100 µM,inhibition,101%
O=C(Nc1cc(-c2ccccc2)sc1C(=O)O)Oc1ccc(Cl)cc1,NS3 ATPase,,IC50,5–20 µM
O=C(O)c1ccc2c(c1)nc(-c1ccc3nc(-c4cccc(-c5ccc(Cl)cc5)c4)ccc3c1)n2C1CCCCC1,NS5B polymerase,33 µM,inhibition,101.5%
O=C(O)c1nc(-c2ccccc2NS(=O)(=O)c2ccc(F)c(F)c2F)[nH]c(=O)c1O,HCV polymerase,,IC50,<100 µM

A second listing of 2 rows from above:

structure	target	tested at	measure	value
O=C(O)c1ccc2c(c1)nc(-c1ccc3nc(-c4ccc(N5CCNCC5)cc4)ccc3c1)n2C1CCCCC1	NS5B polymerase	100 µM	inhibition	97.17%
CC(C)N(C(=O)c1ccc2cc(-c3nc4cc(C(=O)O)ccc4n3C3CCCCC3)ccc2n1)c1ccc(Cl)cc1	NS5B polymerase	100 µM	inhibition	102%

Inhibition is in % at the dose shown (toxicity tests: loss of growth or viability). a–b is a range or a potency band. Lines come from different laboratories, so protocols vary. ICn is the concentration giving n% inhibition.